Laboratory results published in paper PMC4657468, “Impaired uptake of conjugated bile acids and hepatitis b virus pres1-binding in na^+-taurocholate cotransporting polypeptide knockout mice” (Hepatology (Baltimore, Md.), 2015).

Test: 0.1% UDCA diet supplementation, total serum BA concentrations
Type: in vivo, mouse
Conditions: mean ± SEM, total BA assay

C[C@H](CCC(=O)O)[C@H]1CC[C@H]2[C@@H]3[C@@H](O)C[C@@H]4C[C@H](O)CC[C@]4(C)[C@H]3CC[C@]12C [UDCA, ursodeoxycholic acid]
Total serum BA concentrations after 0.1% UDCA supplementation (WT mice fed UDCA, n = 4): 3.4 ± 1.4 µmol/L | Total serum BA concentrations after 1 week of 0.1% UDCA supplementation (adult (8- to 10-week-old) Slc10a1−/− mice, n = 8, 0.1% UDCA in chow, 1 week): 2528 ± 792.7 µmol/L
